Measured values from several laboratories, pooled; numbers as filed in NIAID ChemDB.

Common to all: tests in culture; species: Mycobacterium kansasii

A number after MIC or MFC names an inhibition level or a share of isolates. An empty or dashed field is not shown. Conditions beyond the fields shown may differ between rows.

structure | conditions | read-out | strain or isolate | read by | value
O=C(Nc1ccc(Cl)cc1)c1ccc(Cl)cc1OS(=O)(=O)c1ccccc1 | 14 d | MIC | 6509/96 |  | 16 µM
O=C(Oc1cc(Cl)ccc1C(=O)Nc1cccc(Cl)c1)c1cnccn1 | 21 d | MIC | 235/80 |  | 4 µM
S=c1oc2ccc(Br)cc2c(=S)n1-c1ccc(Cl)cc1 | 21 d | MIC | My 235/80 |  | 4 µM
O=C(Oc1cc(Cl)ccc1C(=O)Nc1cccc(Br)c1)c1cnccn1 | 14 d | MIC | 6509/96 |  | 4 µM
O=C(NNC(=O)c1ccncc1)Nc1ccc(F)c(Cl)c1 | 21 d | MIC100 | My 235/80 | broth dilution | >125 µM
O=C(Oc1ccc(Br)cc1C(=O)Nc1ccc(C(F)(F)F)cc1)c1cnccn1 | 7 d | MIC | 6509/96 |  | 1 µM
Fc1cccc(-n2c(=S)oc3ccc(Br)cc3c2=S)c1 | 21 d | MIC | 6509/96 |  | 8 µM
O=C(NNC(=O)c1ccncc1)Nc1ccc(Br)cc1F | 7 d | MIC100 | My 235/80 | broth dilution | >125 µM
O=C(Oc1cc(Cl)ccc1C(=O)Nc1ccc(Cl)c(Cl)c1)c1cnccn1 | 14 d | MIC | 6509/96 |  | 4 µM
O=C(Nc1cccc(C(F)(F)F)c1)c1ccc(Cl)cc1OS(=O)(=O)c1ccccc1 | 7 d | MIC | 6509/96 |  | 125 µM
Fc1ccc2oc(=S)n(-c3ccc(Br)cc3)c(=S)c2c1 | 14 d | MIC | My 235/80 |  | 4 µM
O=C(Oc1cc(Cl)ccc1C(=O)Nc1ccc(Cl)cc1)c1cnccn1 | 14 d | MIC | 235/80 |  | 2 µM
O=C(Nc1ccc(F)cc1)c1ccc(Cl)cc1OS(=O)(=O)c1ccccc1 | 21 d | MIC | 6509/96 |  | 16 µM
O=C(Oc1ccc(Cl)cc1)c1cnccn1 | 21 d | MIC | 6509/96 |  | 500 µM
O=C(Nc1cccc(Cl)c1)c1ccc(Cl)cc1OS(=O)(=O)c1ccccc1 | 14 d | MIC | 6509/96 |  | 500 µM
CCCCc1ccc(NC(=O)NNC(=O)c2ccncc2)cc1 | 7 d | MIC100 | My 235/80 | broth dilution | 62.5 µM
COc1ccc2oc(=S)n(-c3ccc(Br)cc3)c(=S)c2c1 | 14 d | MIC | My 235/80 |  | 32 µM
O=C(Nc1cccc(Cl)c1)c1cc(Cl)ccc1OS(=O)(=O)c1ccccc1 | 14 d | MIC | 235/80 |  | 16 µM
O=C(NNC(=O)c1ccncc1)Nc1ccc(Br)cc1Br | 14 d | MIC100 | My 6509/96 | broth dilution | >125 µM
O=C(Oc1ccc(Cl)cc1C(=O)Nc1ccc(F)cc1)c1cnccn1 | 21 d | MIC | 235/80 |  | 8 µM
O=C(Nc1cccc(F)c1)c1cc(Cl)ccc1OS(=O)(=O)c1ccccc1 |  | MIC | 6509/96 |  | 125 µM
O=C(Oc1ccc(Cl)cc1C(=O)Nc1ccc(Cl)c(Cl)c1)c1cnccn1 | 7 d | MIC | 235/80 |  | 2 µM
Cc1ccc(-n2c(=O)oc3ccc(F)cc3c2=S)cc1 | 14 d | MIC | 6509/96 |  | 1 µM
O=C(Nc1ccc(C(F)(F)F)cc1)c1cc(Cl)ccc1OS(=O)(=O)c1ccccc1 | 21 d | MIC | 235/80 |  | 125 µM